Results of unrelated studies side by side (data: NIAID ChemDB).

Shared fields: whole-cell or culture tests; species: Hepatitis B virus; endpoint: EC50

a–b is a range or a potency band. Blank or dashed fields: not listed here. Lines come from different laboratories, so protocols vary. ECn is the concentration giving n% inhibition of infection, replication or growth.

SMILES,method,cells,value
COCCCOc1cc2c(cc1Cl)-c1c(cc(C(=O)O)c(=O)n1C1CC1)[C@H](C)S2(=O)=O,antigen / visual reading / absorbance,Primary human hepatocytes,0.05–0.1 µM
COc1ccc(CNC(=O)c2c3n(c(=O)n2-c2ccccc2)CCN(C(=O)Nc2ccc(F)c(Cl)c2)C3)cc1,PCR,HepG2.2.15,0.1–0.5 µM
COC(=O)c1cc(C(=O)OC)c2c(OC)cc(N)cc2n1,-,-,0.2 µg/mL
Clc1ccc(-n2nc3ccc(NCC4CCOC4)cc3n2)cc1,antigen / luminescence,Primary human hepatocytes (PHH),4.92 µM
CC(=O)c1c(O)c(C(C)C)cc2c(c1=O)C[C@@]1(O)CCCC(C)(C)C1CC2,ELISA / antigen,HepG2.2.15,160 µM
CS(=O)(=O)C1(c2ccn(C(=O)NCCC3(c4ncc(-c5ccc(Cl)cc5)s4)CCC3)n2)CC1,antigen / luminescence,Primary human hepatocytes,0.05 µM
COc1cc2c(cc1Cl)-c1c(cc(C(=O)O)c(=O)n1C1CC1)CS2(=O)=O,antigen / visual reading / absorbance,Primary human hepatocytes,>0.1 µM
CC(C)(c1cccc(C(=O)NC23CC(c4nc(-c5ccc(Cl)cc5)no4)(C2)C3)c1)S(C)(=O)=O,antigen / luminescence,Primary human hepatocytes,0.37 µM
COC(=O)c1cc(OC)c2c(OC)cc(N)cc2n1,-,-,0.15 µg/mL
CS(=O)(=O)C1(c2cc(C(=O)NC34CC(c5nc(-c6ccc(Cl)cc6)no5)(C3)C4)ccn2)CC1,antigen / luminescence,Primary human hepatocytes,0.77 µM
O=C(NCc1ccccc1)c1c2n(c(=O)n1-c1ccccc1)CCN(C(=O)c1ccc(Br)c(Cl)c1)C2,PCR,HepG2.117,0.5–5 µM
CNC(=O)c1ccc(-n2c(-n3cc(CC(C)C)cn3)nc3c(c2=O)C[C@@H](C)N(C(=O)c2ccc(Br)c(C(F)(F)F)c2)C3)cc1,PCR,HepG2.117,>0.05 µM
O=C(NCc1ccccc1-c1cocn1)c1c2n(c(=O)n1-c1ccc(OCC(F)(F)F)cc1)CCN(C(=O)c1ccc(Br)c(Cl)c1)C2,PCR,HepG2.117,0.1–0.5 µM
COCCCOc1cc2c(cc1C(C)C)-c1c(cc(C(=O)O)c(=O)n1C1CC1)CS2(=O)=O,antigen / visual reading / absorbance,Primary human hepatocytes,>0.5 µM
COC(=O)c1cc2c(OC)cc(N)cc2s1,-,-,8.15 µg/mL
COCCCOc1cc2c(cc1Cl)-c1c(cc(C(=O)O)c(=O)n1C1CC1)CS2=O,antigen / visual reading / absorbance,Primary human hepatocytes,0.05–0.1 µM
CC(C)Oc1ccc(-n2c(C(=O)NCc3ccccc3)c3n(c2=O)CCN(C(=O)/C=C/c2ccc(Cl)c(Cl)c2)C3)cc1,PCR,HepG2.117,>5 µM
CNC(=O)c1ccc(-n2c([C@@H]3CCCN3C(C)C)nc3c(c2=O)C[C@@H](C)N(C(=O)c2ccc(Br)c(C(F)(F)F)c2)C3)cc1,PCR,HepG2.117,>0.5 µM
COc1cc(N)cc2[nH]c(CC(=O)O)cc12,-,-,0.24 µg/mL
COC(=O)[C@H](C)NP(=O)(OCC1C/C1=C/n1cnc2c(=O)[nH]c(N)nc21)Oc1ccccc1,-,2.2.15,2 µM
CS(=O)(=O)C1(c2ncc(C(=O)NCCC3(c4ncc(-c5ccc(Cl)cc5)s4)CCC3)o2)CC1,antigen / luminescence,Primary human hepatocytes,0.09 µM
COCCCOc1cc2c(cc1-c1ccc(C)s1)-c1c(cc(C(=O)O)c(=O)n1C1CC1)CS2(=O)=O,antigen / visual reading / absorbance,Primary human hepatocytes,0.1–0.5 µM
COc1ccc([C@@H](C)NC(=O)c2c3n(c(=O)n2-c2ccc(OC)cc2)CCN(C(=O)c2ccc(Br)c(Cl)c2)C3)cc1,PCR,HepG2.117,0.5–5 µM
CS(=O)(=O)C1(c2cccc(C(=O)NC34CC(c5nc(-c6ccc(Cl)cc6)no5)(C3)C4)n2)CC1,antigen / luminescence,Primary human hepatocytes,0.47 µM
O=C(NCc1ccc(OC(F)F)cc1F)c1c2n(c(=O)n1-c1ccc(OC3CC3)cc1)CCN(C(=O)c1ccc(Br)c(Cl)c1)C2,PCR,HepG2.117,0.1–0.5 µM
COC(=O)[C@H](C)NP(=O)(OC[C@@H]1C[C@]12C[C@@H]2n1cnc2c(N)ncnc21)Oc1ccccc1,-,2.2.15,3.1 µM
COc1ccc(-n2c(C(=O)NCc3ccc(OC)c(C)c3)c3n(c2=O)CCN(C(=O)c2ccc(Cl)c(Cl)c2)C3)cc1,PCR,HepG2.117,0.5–5 µM
CC1c2cc(C(=O)O)c(=O)n(C3CC3)c2-c2cc(Cl)c(OCC3CCOCC3)cc2S1(=O)=O,antigen / visual reading / absorbance,Primary human hepatocytes,0.05–0.1 µM
Nc1nc(NC2CC2)c2ncn(C=C3CC3CO)c2n1,-,2.2.15,2 µM
COCCCOc1cc2c(cc1-c1ncco1)-c1c(cc(C(=O)O)c(=O)n1C1CC1)C(C)S2(=O)=O,antigen / visual reading / absorbance,Primary human hepatocytes,>0.5 µM
COC(=O)Cc1ccc2c(OC)cc(N)cc2n1,-,-,0.13 µg/mL
O=C1NCCCn2c1c1n(c2=O)CCN(C(=O)Nc2cccc(Br)c2)C1,PCR,HepG2.2.15,>5 µM
CCC1c2cc(C(=O)O)c(=O)n(C3CC3)c2-c2cc(Cl)c(OCCCOC)cc2S1(=O)=O,antigen / visual reading / absorbance,Primary human hepatocytes,>0.5 µM

A second listing of 4 rows from above:

{"SMILES": "O=C(NCc1ccccc1)c1c2n(c(=O)n1-c1ccccc1)CCN(C(=O)c1ccc(Br)c(Cl)c1)C2", "method": "PCR", "cells": "HepG2.117", "value": "0.5–5 µM"}
{"SMILES": "COc1ccc(-n2c(C(=O)NCc3ccc(OC)c(C)c3)c3n(c2=O)CCN(C(=O)c2ccc(Cl)c(Cl)c2)C3)cc1", "method": "PCR", "cells": "HepG2.117", "value": "0.5–5 µM"}
{"SMILES": "COc1cc(N)cc2[nH]c(CC(=O)O)cc12", "value": "0.24 µg/mL"}
{"SMILES": "CC1c2cc(C(=O)O)c(=O)n(C3CC3)c2-c2cc(Cl)c(OCC3CCOCC3)cc2S1(=O)=O", "method": "antigen / visual reading / absorbance", "cells": "Primary human hepatocytes", "value": "0.05–0.1 µM"}